For at least one entry, the source does not settle the construct or the ends of the probe. A weaker result is weaker than the reference pair of the same experiment. Protein sequences can lack the tags named with them.
Legend:
[1] = target: T1, SifR WT (Streptococcus pneumoniae D39) (UniProt A0A0H2ZNG7); experiment: fluorescence anisotropy; conditions: BQ-adducted protein, non-saturable, nonspecific; fluorescein-dT at 5' position 1 of strand 1; 25 mM Tris-HCl, 150 mM NaCl, 2 mM EDTA, 2 mM TCEP, pH 7.5, 25 C, ~10 nM labeled DNA (Fig S8: 50 mM Tris-HCl, 150 mM NaCl, pH 7.4, 25 C); recombinant protein; protein details: His6 removed by TEV, tag-free; label: 5'-fluorescein
T1 sequence (looked up, limits assumed): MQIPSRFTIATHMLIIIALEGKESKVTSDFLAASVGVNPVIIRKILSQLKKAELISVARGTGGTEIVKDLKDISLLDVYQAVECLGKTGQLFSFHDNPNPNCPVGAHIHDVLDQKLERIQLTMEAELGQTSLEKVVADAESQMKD

[2] = target: T1, SifR WT (Streptococcus pneumoniae D39); experiment: fluorescence anisotropy (dissociation); conditions: no TCEP, fluorescein-dT at 5' position 1 of strand 1, 25 mM Tris-HCl, 150 mM NaCl, 2 mM EDTA, 2 mM TCEP, pH 7.5, 25 C, ~10 nM labeled DNA (Fig S8: 50 mM Tris-HCl, 150 mM NaCl, pH 7.4, 25 C), recombinant protein, protein details: His6 removed by TEV, tag-free, label: 5'-fluorescein

Measured: binding result

TATAGTTGTAATAATAATAATTACAACGAG (double strand) [F-catE O/P]
binds more weakly: [1] | [2]; 0.3 uM BQ added to complex | [2]; 6 uM adrenochrome added to complex

Reference: article PMC9218516, “SifR is an Rrf2-family quinone sensor associated with catechol iron uptake in Streptococcus pneumoniae D39” (The Journal of Biological Chemistry, 2022)
